Results of unrelated studies side by side (data: NIAID ChemDB).

All rows: growth or infection tests; organism: HIV-1; read-out: fold resistance

An empty or dashed field is not shown.

| smiles | strain | method | changes | cell line | value |
|---|---|---|---|---|---|
| Cc1cc(C)cc(C(=O)c2cc(Cl)ccc2OCC(=O)Nc2ccc(S(N)(=O)=O)cc2C)c1 | HXB2 | β-galactosidase | RT-V108I Y181C | HeLa + HELA CD4+ | ~1 |
| Nc1nc(NC2CC2)c2ncn([C@H]3C=C[C@@H](CO)C3)c2n1 | XM-ABC-resistant | p24 | RT-K65R L74V M184V Y115F | MT-4 | 53 |
| Cc1ccc(C2CC2)c(-c2ccc3c(c2)CCCO3)c1[C@H](OC(C)(C)C)C(=O)O | NL4-3 | luminescence | PI-resistant ARP-4595 (M46I/L63P/V82T/I84V) | MT-4 | 1 |
| COC(=O)Oc1ccc(NC(=O)C2=C(C)OCCS2)cc1C(=O)OC(C)C | TIBO-resistant (RT L100I) | syncytia | RT-L100I | CEM | >14.3 |
| Cc1cc(S(N)(=O)=O)ccc1NC(=O)COc1ccc(Cl)cc1C(=O)c1cccc(C#N)c1 | HXB2 | β-galactosidase | RT-P225H | HeLa + HELA CD4+ | ~1 |
| Cc1ccc(-n2c(C)nnc2SCC(=O)Nc2ccc(Cl)cc2)cc1 | NL4-3 | luciferase | RT-K103N Y181C | HeLa + HeLa-JC53 | >25 |
| CCc1c(C)[nH]c(=O)c(SCCC(N)=O)c1Oc1cc(C)cc(C)c1 | - | cytopathic effect / MTT | RT-L100I | MT-4 | 13 |
| Cc1cc(S(N)(=O)=O)ccc1NC(=O)COc1ccc(Cl)cc1C(=O)c1cccc(C#N)n1 | HXB2 | β-galactosidase | RT-K103N | HeLa + HELA CD4+ | ~1 |
| CCN1c2ncc(CCOc3ccc(-c4cocn4)cc3C)cc2C(=O)N(C)c2cccnc21 | - | p24 | RT-K103N Y181C | C8166 | 1 |
| Cn1c2ccccc2c2c1cc(C#N)c(=O)n2-c1ccc([N+](=O)[O-])cc1 | H | cytopathic effect / MTT | RT-K103N Y181C | MT-4 | 5 |
| CCN1c2ncc(CCOc3ccc4cc(C(=O)NN)ccc4c3)cc2C(=O)N(C)c2cccnc21 | - | p24 | RT-K103N Y181C | C8166 | 1–10 |
| O=C1Nc2ccc(F)c(F)c2[C@@](C#CC2CC2)(C(F)(F)F)N1 | - | - | RT-P225H | - | <13.3 |
| Cc1ccc2c(C)ccc(-n3c(C)nnc3SCC(=O)Nc3ccccc3Br)c2c1 | NL4-3 | luciferase | RT-Y188L | HeLa + HeLa-JC53 | 400 |
| CCC(=O)Oc1ccc(NC(=O)C2=C(C)OCCS2)cc1C(=O)OC(C)C | Nevirapine-resistant (RT V106A) | syncytia | RT-V106A | CEM | >2.22 |
| Cc1ccc(NC(=O)CSc2nnc(C)n2-c2cc(C)c(C)c3ccccc23)c(Cl)c1 | NL4-3 | luciferase | RT-Y188L | HeLa + HeLa-JC53 | 160 |
| CC(C)=CCOc1cc(NC(=S)c2ccsc2C)ccc1Cl | NL4-3 (RT M184V) | cytopathic effect / XTT | RT-M184V | CEM + CEM-SS | 1.67 |
| Cc1occc1C(=S)Nc1ccc(Cl)c(C(=O)OC(C)C)c1 | NL4-3 | cytopathic effect / XTT | RT-L100I | CEM + CEM-SS | 20 |
| O=C1Nc2ccc(Cl)cc2[C@@](C#CC2CC2)(C(F)(F)F)N1 | - | - | RT-Y188L | - | 51.6 |
| Cc1occc1C(=O)Nc1ccc(Cl)c(SCC=C(Cl)Cl)c1 | TIBO R82913-resistant (RT K103N) | syncytia | RT-K103N | CEM | 21.5 |
| Cc1sccc1C(=S)Nc1ccc(Cl)c(C(=O)OC2CCCCC2)c1 | - | syncytia | RT-V106A | CEM | 8.57 |
| CCc1ccc(-n2c(C)nnc2SCC(=O)Nc2ccc(C)cc2Cl)c2ccccc12 | NL4-3 | luciferase | RT-Y188L | HeLa + HeLa-JC53 | 110 |
| CC1=C(C(=O)Nc2ccc(C)c(C(=O)OC(C)C)c2)SCCO1 | TSAO-resistant (RT E138K) | syncytia | RT-E138K | CEM | 18.9 |
| CCOCn1c(Sc2ccccc2)c(CC)c(=O)[nH]c1=S | IIIB | syncytia | Nevirapine resistant (RT Y181C) | CEM | 28.2 |
| C/C=C/CSc1cc(NC(=S)c2ccsc2C)ccc1Cl | NL4-3 | p24 | RT-K103N | CEM + CEM-SS | 60 |
| Cc1occc1C(=S)Nc1ccc(Cl)c(SCC=C(Cl)Cl)c1 | TSAO-m3T-resistant (RT E138K) | syncytia | RT-E138K | CEM | 6 |
| CCN1c2ncc(CCOc3ccc(/C=C(\C)C(=O)O)c4ccccc34)cc2C(=O)N(C)c2ccc(F)nc21 | - | p24 | RT-K103N Y181C | C8166 | 1 |
| CCC(=O)c1ccc(F)c([C@@H]2C[C@@H]2NC(=O)Nc2ccc(C#N)cn2)c1O | LAI | β-galactosidase / luminescence | NNRTI-resistant (RT G190S) | TZM-bl | 0.1 |
| CCN1c2ncc(CCOc3ccc(CCC(=O)O)c4ccccc34)cc2C(=O)Nc2c(C)cc(Cl)nc21 | - | p24 | RT-K103N Y181C | C8166 | 1–10 |
| CCN1c2ncc(CCOc3ccc(NC(=O)C4CC4C(=O)O)cc3C)cc2C(=O)N(C)c2cccnc21 | - | p24 | RT-K103N Y181C | C8166 | >5 |
| CC=CCOc1cc(NC(=S)c2ccoc2C)ccc1OC | NL4-3 | cytopathic effect / XTT | RT-K101E | CEM + CEM-SS | 20 |
| CCOCn1c(Cc2cc(C)cc(C)c2)c(CC)c(=O)[nH]c1=O | IIIB | syncytia | RT-Y181C | CEM | 40 |
| CCN1c2ncc(CCOc3ccc(CC(=O)O)c4ccccc34)cc2C(=O)N(C)c2cccnc21 | - | p24 | RT-K103N Y181C | C8166 | 1 |
| N#Cc1cc(Cl)cc(Oc2c(Br)ccc(CC(=O)Nc3ccc(S(N)(=O)=O)cc3Cl)c2F)c1 | - | - | L100I V106I E138K Y188L | MT-4 | >308 |
| COCCOC(=O)c1cc(NC(=O)C2=C(C)OCCS2)ccc1Cl | TIBO-resistant (RT L100I) | syncytia | RT-L100I | CEM | 12.5 |
| CCc1c(C)[nH]c(=O)c(Sc2ccccc2)c1Oc1cc(C)cc(C)c1 | - | cytopathic effect / MTT | RT-K103N Y181C | MT-4 | 158 |
| CC(C)[C@H](NC(=O)OCc1ccccn1)C(=O)N[C@@H](Cc1ccccc1)[C@@H](O)C[C@H](Cc1ccccc1)NC(=O)OCc1cccnc1 | NL4-3 | p24 | PR-L63P V82T I84V | MT-4 | 3.75 |
| Cc1ccc(C2CC2)c(-c2ccc3c(c2C)CCCO3)c1[C@H](OC(C)(C)C)C(=O)O | NL4-3 | luminescence | INSTI-resistant (IN-Y143R) | MT-4 | 1 |
| CCc1c(C)[nH]c(=O)c(C(C)C)c1Oc1cc(C)cc(C)c1 | - | cytopathic effect / MTT | RT-Y181C | MT-4 | 2 |
| CCCOC(=O)c1ccc(C)c(NC(=O)C2=C(C)OCCS2)c1 | PYR-resistant (RT Y181C) | syncytia | RT-Y181C | CEM | >10 |
| CCCc1cc(=O)oc2c3c(c4c(c12)OC(C)(C)CC4)O[C@H](C)[C@@H](C)C3=O | - | cytopathic effect / XTT | RT-V108I | - | >68 |
| Cc1occc1C(=S)Nc1ccc(Cl)c(OCC=C(Cl)Cl)c1 | HEPT-resistant (RT Y188H) | syncytia | RT-Y188H | CEM | 235 |
| Cc1cc2c(C)cccc2c(-n2c(C)nnc2SCC(=O)Nc2ccccc2Br)c1C | NL4-3 | luciferase | RT-Y188L | HeLa + HeLa-JC53 | 200 |
| CCN1c2ncccc2NC(=O)c2cc(CCOc3ccc(-c4ccc(CC(=O)O)cc4)cc3C)cnc21 | - | p24 | RT-K103N Y181C | C8166 | >1 |
| CCOCn1c(Cc2ccccc2)c(CC)c(=O)[nH]c1=O | IIIB | syncytia | RT-Y188H | CEM | ≥1875 |
| C[C@@H]1CCO[C@H]2Cn3cc(C(=O)NCc4ccc(F)cc4F)c(=O)c(O)c3C(=O)N12 | - | luciferase / luminescence | L74F | TZM-bl | 0.4 |
| Cc1cc(C)cc(Cc2c(C(C)C)c(=O)[nH]c(=O)n2COCCO)c1 | IIIB | syncytia | RT-Y181C | CEM | 20 |
| CCN1c2ncc(CCOc3ccc(-c4ccc(C(=O)O)cc4)c(Cl)c3)cc2C(=O)N(C)c2cccnc21 | - | p24 | RT-K103N Y181C | C8166 | >1 |
| CC(C)=CCOc1cc(NC(=S)c2ccoc2C)ccc1Cl | IIIB | syncytia | RT-Y188H | CEM | 5 |
| Cc1occc1C(=S)Nc1ccc(Cl)c(/C=N/OC(C)(C)C)c1 | IIIB | syncytia | RT-V106A | CEM | 2.6 |
| C/C(Cl)=C/COc1cc(NC(=O)c2ccoc2C)ccc1Cl | Nevirapine-resistant isolate (RT V106A) | syncytia | RT-V106A | CEM | 3.33 |
| CC1=C(C(=O)Nc2cc(C(=O)OC(C)C)c(F)cc2F)SCCO1 | TIBO-resistant (RT L100I) | syncytia | RT-L100I | CEM | >11.8 |
| Cc1cn([C@H]2C=C[C@@H](CO)O2)c(=O)[nH]c1=O | XM-M184V | p24 | RT-M184V | MT-4 | 1 |
| CC(=O)c1ccc(C)cc1NC(C(N)=O)c1c(Cl)cccc1Cl | UC781-R (RT-Y181C) | cytopathic effect / XTT | RT-Y181C | CEM + CEM-SS | >100 |
| CC1=C(C(=O)Nc2cc(C(=O)OC(C)C)c(Cl)cc2F)SCCO1 | Nevirapine-resistant (RT V106A) | syncytia | RT-V106A | CEM | >15.4 |
| C/C(Cl)=C/COc1cc(NC(=S)c2ccoc2C)ccc1Cl | TSAO-m3T-resistant (RT E138K) | syncytia | RT-E138K | CEM | 2.67 |
| CCN1c2ncc(CCOc3ccc(NC(=O)CC4(C(=O)O)CCCC4)cc3C)cc2C(=O)N(C)c2cccnc21 | - | p24 | RT-K103N Y181C | C8166 | 1 |
| CCc1c(C)[nH]c(=O)c(C2CC2)c1Oc1cc(C)cc(C)c1 | - | cytopathic effect / MTT | RT-Y181C | MT-4 | 25 |
| C=C(Cl)COc1cc(NC(=S)c2ccoc2C)ccc1C | TIBO R82913-resistant (RT K103N) | syncytia | RT-K103N | CEM | 8.33 |
| Cc1occc1C(=S)Nc1ccc(Cl)c(/C=N/OC(C)(C)C)c1 | IIIB | syncytia | RT-Y181C | CEM | 2 |
| COc1ccnc2[nH]cc(C(=O)C(=O)N3CCN(C(=O)c4ccccc4)C[C@H]3C)c12 | NL4-3 (gp120 R350K M475I) Recombinant | RT activity | GP120-R350K M475I | MT-2 | 15.3 |
| C=Cc1c(Oc2cc(C)cc(C)c2)c(CC)c(C)[nH]c1=O | - | cytopathic effect / MTT | RT-Y181C | MT-4 | 6 |
| CCN1c2ncc(CCOc3ccc(C(=O)Nc4nc(CC(=O)O)cs4)cc3C)cc2C(=O)N(C)c2cccnc21 | - | p24 | RT-K103N Y181C | C8166 | >1 |
| CC(C)=CCOc1cc(NC(=S)c2ccoc2C)ccc1Cl | NL4-3 (RT V108I) | cytopathic effect / XTT | RT-V108I | CEM + CEM-SS | 1.67 |
| C[C@@H]1CCO[C@H]2Cn3cc(C(=O)NCc4ccc(F)cc4F)c(=O)c(O)c3C(=O)N12 | NL4-3 | RT activity | M50I/R263K | CBMC | 2 |
| Nc1ncnc2c1ncn2[C@@H]1O[C@H](OCP(=O)(O)O)C=C1F | - | cytopathic effect | RT-K65R | MT-2 | 1.2 |
| Cc1cc(S(N)(=O)=O)ccc1NC(=O)COc1ccc(Cl)cc1C(=O)c1cc(F)cc(F)c1 | HXB2 | β-galactosidase | RT-G190A | HeLa + HELA CD4+ | ~1 |
| COc1cc2c(cc1Cc1cccc(Cl)c1F)c(=O)c(C(=O)O)cn2[C@H](CO)C(C)C | NL4-3 | luminescence | A128T | MT-4 | 1 |
| CCc1c(C)[nH]c(=O)c(CC)c1Oc1cc(C)cc(C)c1 | - | cytopathic effect / MTT | RT-Y188L | MT-4 | 20 |
| Cc1occc1C(=S)Nc1ccc(Cl)c(C(=O)OCC2CC2)c1 | NL4-3 | cytopathic effect / XTT | RT-K101E | CEM + CEM-SS | 18 |
| CC(C)OC(=O)c1cc(NC(=S)OC(C)C)ccc1Cl | IIIB | syncytia | RT-Y188H | CEM | 72.4 |
| CC1=C(C(=O)Nc2ccc(F)c(C(=O)OC(C)C)c2)SCCO1 | TSAO-resistant (RT E138K) | syncytia | RT-E138K | CEM | >28.6 |
| CCN1c2ncc(CCOc3ccc(/C=C(\C)C(=O)O)c4ccccc34)cc2C(=O)N(C)c2ccc(C)nc21 | - | p24 | RT-K103N Y181C | C8166 | 1 |
| Cc1occc1C(=S)Nc1ccc(Cl)c(/C=N/OC(C)(C)C)c1 | CALO(RT-T139I) | cytopathic effect / XTT | RT-T139I | CEM + CEM-SS | 1.5 |
| CCCOC(=O)c1cc(NC(=O)C2=C(C)OCCS2)ccc1Cl | PYR-resistant (RT Y181C) | syncytia | RT-Y181C | CEM | 225 |
| C=CCO/N=C/c1cc(NC(=S)c2ccoc2C)ccc1Cl | NL4-3 | cytopathic effect / XTT | RT-L100I | CEM + CEM-SS | 186 |
| N#Cc1cc2[nH]c3ccccc3c2n(-c2ccc([N+](=O)[O-])cc2)c1=O | A | cytopathic effect / MTT | RT-Y181C | MT-4 | 8 |

7 of the rows above, restated:

Cc1occc1C(=S)Nc1ccc(Cl)c(C(=O)OCC2CC2)c1 ; strain: NL4-3 ; method: cytopathic effect / XTT ; changes: RT-K101E ; cell line: CEM + CEM-SS ; value: 18
CCc1c(C)[nH]c(=O)c(C2CC2)c1Oc1cc(C)cc(C)c1 ; method: cytopathic effect / MTT ; changes: RT-Y181C ; cell line: MT-4 ; value: 25
Cc1cn([C@H]2C=C[C@@H](CO)O2)c(=O)[nH]c1=O ; strain: XM-M184V ; method: p24 ; changes: RT-M184V ; cell line: MT-4 ; value: 1
Cc1cc(S(N)(=O)=O)ccc1NC(=O)COc1ccc(Cl)cc1C(=O)c1cccc(C#N)n1 ; strain: HXB2 ; method: β-galactosidase ; changes: RT-K103N ; cell line: HeLa + HELA CD4+ ; value: ~1
CCN1c2ncc(CCOc3ccc(NC(=O)C4CC4C(=O)O)cc3C)cc2C(=O)N(C)c2cccnc21 ; method: p24 ; changes: RT-K103N Y181C ; cell line: C8166 ; value: >5
CCOCn1c(Cc2ccccc2)c(CC)c(=O)[nH]c1=O ; strain: IIIB ; method: syncytia ; changes: RT-Y188H ; cell line: CEM ; value: ≥1875
CC1=C(C(=O)Nc2cc(C(=O)OC(C)C)c(F)cc2F)SCCO1 ; strain: TIBO-resistant (RT L100I) ; method: syncytia ; changes: RT-L100I ; cell line: CEM ; value: >11.8

Lines come from different laboratories, so protocols vary. Two numbers with a dash give a range or band. Fold resistance: result on the changed form divided by that on wild type.